The assay concerns the target FLD21.140 (full-length human IgG1) (human). The assay can be described thus: BLI.

Regarding “A/Anhui/1/2005 H5N1 HA globular head (D55-E271), wild type (domain or fragment)”, the Kd was found to be 8.9 µM.
